In ChEMBL document CHEMBL4390646, “A fragment-based approach towards the discovery of N-substituted tropinones as inhibitors of Mycobacterium tuberculosis transcriptional regulator EthR2” (Eur J Med Chem, 2019):

Test system: Mycobacterium tuberculosis
Assay: Binding affinity to recombinant Mycobacterium tuberculosis EthR2 assessed as change in melting temperature at 20 uM by SYPRO Orange dye based fluorescence thermal shift assay

Question: With `O=C1CCN(CCc2ccc(Cl)cc2)CC1` as the molecule, how does the ΔTm read?
Answer: The ΔTm was 0.3 °C.
